Target: HindIII (UniProt P43870)
Experiment: enzyme reaction in vitro
Details: 5'-dithiol on upper strand, tethered to 20 nm Au nanoparticle; removes 42 bp from distal end; 3.5 nM enzyme; purified recombinant protein; protein details: New England Biolabs; label: FITC on 5' of lower strand

Amino acid sequences for entries named in this document (tags omitted). A change or cut given only in a name is not applied to a line headed by its entry.
UniProt P43870: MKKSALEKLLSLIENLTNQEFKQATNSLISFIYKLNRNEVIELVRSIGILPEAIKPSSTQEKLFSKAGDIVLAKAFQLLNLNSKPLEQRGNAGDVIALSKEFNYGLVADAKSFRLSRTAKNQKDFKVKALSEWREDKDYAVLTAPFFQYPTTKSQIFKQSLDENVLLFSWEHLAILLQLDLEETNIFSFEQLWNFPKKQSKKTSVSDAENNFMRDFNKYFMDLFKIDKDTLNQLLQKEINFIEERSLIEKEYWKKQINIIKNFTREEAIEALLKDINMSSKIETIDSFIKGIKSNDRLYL

In the case of “AAAGGATCCAAGCTTGAATTCCTCGAGAGATCTGTCGACGATATCGGTACCAAA (double strand) [54-bp ruler dsDNA]”, the “activity on this sequence” value is reported as “active”.

Source: patent US20100323906
